{"source": "patent US20110117106A1", "about": "“USES OF CALPAIN INHIBITORS TO INHIBIT INFLAMMATION” (priority 2008, published 2011)", "test_system": "PMN recruitment into the lung and airway lumen", "experiment": "Adult C57BL/6 mouse P. aeruginosa infection with bronchoalveolar lavage", "format": "in vivo", "conditions": "2 hr infection", "protocol": "To test the effects of calpain inhibition on the transmigration of PMNs into P. aeruginosa-infected airways, bronchoalveolar lavage (BAL) experiments were performed on adult C57BL/6 mice. Mice were treated with i.p. calpeptin or vehicle and intranasally infected with P. aeruginosa for 2 hr. PMNs from BAL or whole-lung suspension were quantified by flow cytometry. Compared to vehicle-treated controls, calpeptin-treated mice had 37% fewer PMNs recruited into the whole lung and 90% fewer into the airway lumen, indicating a more pronounced effect on the epithelial junctions (FIG. 8D). […] Thus, recruitment of PMNs into the murine lung and airway lumen in response to P. aeruginosa is facilitated by calpain activity and its effects on junctional proteins at the mucosal surface."}
{"smiles": "CCCC[C@@H](C=O)NC(=O)[C@H](CC(C)C)NC(=O)OCc1ccccc1", "note": "[calpeptin, Z-Leu-Nle-CHO]", "values": [{"measurement": "Bacterial load in the lung", "result": "did not affect"}]}
